The text below walks through data of PMC11239830, “Synthetic macrolides overcoming MLSBK-resistant pathogens” (Cell Discovery, 2024).

This data set concerns E. coli strain SQ110DTC. The data set can be described thus: Selection of resistant mutants in SQ110DTC. The following applies: 3–9-fold MIC; 23S rRNA and DNA gyrase sequenced. The data set is classed as cell-based.

Structures are written as SMILES.

As to `CC[C@H]1OC(=O)[C@H](C)[C@@H](OC(=O)NCCCOCCC#Cc2ccc3c(=O)c(C(=O)O)cn(C)c3c2)[C@H](C)[C@@H](O[C@@H]2O[C@H](C)C[C@H](N(C)C)[C@H]2O)[C@](C)(OC)C[C@@H](C)C(=O)[C@H](C)[C@H]2NC(=O)O[C@@]21C` [MCX-190], the “mutations in resistant colonies” value is “mutations at A2058G or A2059G positions in the rRNA, with no mutations detected in the gyrase”. Regarding `CC[C@H]1OC(=O)[C@H](C)[C@@H](OC(=O)NCCCCCCC#Cc2ccc3c(=O)c(C(=O)O)cn(C)c3c2)[C@H](C)[C@@H](O[C@@H]2O[C@H](C)C[C@H](N(C)C)[C@H]2O)[C@](C)(OC)C[C@@H](C)C(=O)[C@H](C)[C@H]2NC(=O)O[C@@]21C` [MCX-219], the “mutations in resistant colonies” value is recorded as “mutations at A2058G or A2059G positions in the rRNA, with no mutations detected in the gyrase”.
